{"source": "patent US20140080162A1", "about": "“FLUORESCENCE LIFETIME EPIGENETICS ASSAYS” (ALMAC SCIENCES (SCOTLAND) LIMITED, priority 2011, published 2014)", "test_system": "Endo-LysC", "experiment": "Endo-LysC cleavage of peptides, fluorescence lifetime readout", "assay_type": "biochemical", "key": {"[1]": {"conditions": "1 μM peptide in PCAF assay buffer, 25 nM Endo-LysC, one hour"}}}
{"substance": "K(9AA)ARTK(Me)QTARK^9STGGW-CONH2 [peptide 9]", "values": [{"measurement": "protease-dependent increase in FLT, absence of G9a treatment", "setting": "1 μM peptide, 2 nM Endo-LysC, 60 min", "value": 2.4, "unit": "ns"}, {"measurement": "FLT before Endo-LysC, t=0", "setting": "G9a time-course, 1 μM peptide", "value": 13.5, "unit": "ns"}, {"measurement": "FLT after Endo-LysC, t=0", "setting": "G9a time-course, 1 μM peptide, 2 nM Endo-LysC 10 min", "value": 16.5, "unit": "ns"}]}
{"substance": "WQTARK(Me)STGGK^14APRK(9AA)QLATK-CONH2 [peptide 16]", "values": [{"measurement": "FLT before Endo-LysC cleavage", "setting": "1 μM peptide in PCAF assay buffer", "value": 13.9, "unit": "ns"}, {"measurement": "FLT after Endo-LysC cleavage", "setting": "[1]", "value": 15.7, "unit": "ns"}, {"measurement": "assay range (FLT increase on Endo-LysC)", "setting": "[1]", "value": 1.8, "unit": "ns"}]}
